Anti-infective test results gathered from many reports (values: NIAID ChemDB through PubChem).

Common to all: whole-cell or culture tests; agent: Hepatitis C virus; read by: replicon; measure: EC50

Lines come from different laboratories, so protocols vary. a–b is a range or a potency band. ECn is the concentration giving n% inhibition of infection, replication or growth.

CN1CCN(c2cc3c(cc2F)c(=O)c(-c2noc(Cc4ccc(F)cc4)n2)cn3C2(c3ccc(C(F)(F)F)cc3)CC2)CC1 ; strain or isolate: 1b ; result: <0.5 µM
C=C[C@@H]1C[C@]1(NC(=O)[C@@H]1C[C@@H](Oc2cc(-c3ccccc3)nc3cc(OC)ccc23)CN1C(=O)[C@@H](NC(=O)OC(C)(C)C)C(C)(C)C)C(=O)NS(=O)(=O)c1cccc(C#N)c1 ; cell line: Huh7 ; strain or isolate: 1b ; result: <0.5 µM
CC(C)(c1ccccc1)c1noc(-c2cn(Cc3ccc(C(F)(F)F)cc3)c3cc(N4CCOCC4)c(F)cc3c2=O)n1 ; strain or isolate: 1b ; result: >10 µM
O=C(O)c1ccc2c(C3CCCCC3)c3n(c2c1)C[C@@H](O)[C@@H](O)c1ccccc1-3 ; cell line: Huh7 ; result: 1–10 µM
C=C1C[C@]1(NC(=O)[C@@H]1C[C@@H](Oc2cc(-c3ccccc3)nc3cc(OC)ccc23)CN1C(=O)[C@@H](NC(=O)OC(C)(C)C)C(C)(C)C)C(=O)NS(=O)(=O)c1cc(F)ccc1C ; cell line: Huh7 ; strain or isolate: 1b ; result: <0.5 µM
CNC(=O)c1c(-c2ccc(F)cc2)oc2cc(N(Cc3ccc(OC)cc3)S(C)(=O)=O)c(OCc3ccc(OC)cc3)cc12 ; cell line: Huh7 ; result: <1 µM
C=C[C@@H]1C[C@]1(NC(=O)[C@@H]1C[C@@H](Oc2cc(-c3ccccc3)nc3cc(OC)ccc23)CN1C(=O)[C@@H](Nc1ccncc1[N+](=O)[O-])C(C)(C)C)C(=O)NS(=O)(=O)C1CC1 ; cell line: Huh7 ; strain or isolate: 1b ; result: <50 µM
Cc1ccc(-n2ncc3c(Nc4cccc(-c5cnco5)c4)ncnc32)c(C)c1 ; cell line: HUH 9B ; result: <1 µM
O=c1c(-c2noc(Cc3ccccc3)n2)cn(Cc2ccc(C(F)(F)F)cc2F)c2cc(-n3ccnc3)c(F)cc12 ; strain or isolate: 1b ; result: <10 µM
C=CCOC(=O)N[C@H](C(=O)N1C[C@H](Oc2cc(-c3ccccc3)nc3cc(OC)ccc23)C[C@H]1C(=O)N[C@]1(C(=O)NS(=O)(=O)C2CC2)C[C@H]1C=C)C(C)(C)C ; cell line: Huh7 ; strain or isolate: 1b ; result: <0.05 µM
O=C(NC1(C(=O)Nc2ccccc2)CCCC1)c1ccc2c(C3CCCCC3)c3n(c2c1)CCOc1ncccc1-3 ; cell line: Huh7 ; result: 0.01–1 µM
C=C[C@@H]1C[C@]1(NC(=O)[C@@H]1C[C@@H](Oc2cc(-c3ccccc3)nc3cc(OC)ccc23)CN1C(=O)[C@@H](NC(=O)OC(C)(C)C)C(C)(C)C)C(=O)NS(=O)(=O)CCC ; cell line: Huh7 ; strain or isolate: 1b ; result: <0.5 µM
Clc1ccc(-n2ncc3c(NCCc4c[nH]c5ccccc45)ncnc32)c(Cl)c1 ; cell line: HUH 9B ; result: 1–10 µM
CCOc1nc(N)nc2c1ncn2[C@@H]1O[C@@H]2COP(=O)(OC(C)C)O[C@H]2[C@@]1(C)F ; setting: 68 d ; strain or isolate: 2a ; result: 0.8 µM
CNC(=O)c1c(-c2ccc(F)cc2)oc2cc(NC(C)=O)c(OC)cc12 ; cell line: Huh7 ; result: <1 µM
Cc1ccccc1Cc1nc(-c2cn(CC3CCCCC3)c3cc(N4CCN(C)CC4)c(F)cc3c2=O)no1 ; strain or isolate: 1b ; result: >10 µM
Cc1ccc(-n2ncc3c(CNc4ccc(Cl)c(Cl)c4)ncnc32)c(C)c1 ; cell line: HUH 9B ; result: 1–10 µM
Cn1cnc(S(=O)(=O)NC(=O)c2ccc3c(C4CCCCC4)c4n(c3c2)CCCc2ncccc2-4)c1 ; cell line: Huh7 ; result: 1–10 µM
CNC(=O)c1c(-c2ccc(F)cc2)oc2cc(N3CCOCC3)c(OC3CCCC3)cc12 ; cell line: Huh7 ; result: <1 µM
CN(C)CCNC(=O)C1Cc2ccccc2-c2c(C3CCCCC3)c3ccc(C(=O)NC4(CNc5ccc(/C=C/C(=O)O)cc5)CCCC4)cc3n2C1 ; cell line: Huh7 ; result: 0.01–1 µM
CNC(=O)c1c(-c2ccc(F)cc2)oc2cc(NCC3CCCO3)c(OC(C)C)cc12 ; cell line: Huh7 ; result: <10 µM
NC(=O)COc1ccc2c(c1)S(=O)(=O)N=C(c1c(O)c3cc(F)ccc3n(CCC3CC3)c1=O)N2 ; strain or isolate: 1a 5904 ; result: 0.5 µM
O=C(O)c1ccc2c(C3CCCCC3)c3c4ccccc4ncn3c2c1 ; cell line: Huh7 ; result: >10 µM
NS(=O)(=O)c1ccc(CCNc2ncnc3c2cnn3-c2ccc(Cl)cc2Cl)cc1 ; cell line: HUH 9B ; result: <1 µM
CS(=O)(=O)NC(=O)c1ccc2c(C3CCCCC3)c3n(c2c1)CC(C(=O)N1CCOCC1)Cc1ccccc1-3 ; cell line: Huh7 ; result: 0.01–1 µM
CNC(=O)c1c(-c2ccc(F)cc2)oc2cc(-c3ccc[nH]3)c(OC(C)C)cc12 ; cell line: Huh7 ; result: <10 µM
Cc1ccc(-n2ncc3c(NC(=O)Cc4ccccc4Br)ncnc32)c(C)c1 ; cell line: HUH 9B ; result: 1–10 µM
COc1ccc(Cn2cc(-c3noc(C(C)(C)c4ccc(F)cc4)n3)c(=O)c3cc(F)c(N4CCOCC4)cc32)cc1 ; strain or isolate: 1b ; result: <0.5 µM
COc1ccc(Cl)cc1Nc1ncnc2c1cnn2-c1ccccc1 ; cell line: HUH 9B ; result: 1–10 µM
CNC(=O)c1c(-c2ccc(F)cc2)oc2cc(N3CCOCC3)c(OCCOC)cc12 ; cell line: Huh7 ; result: <1 µM
CN(C)c1cc2c(cc1F)c(=O)c(-c1noc(Cc3ccccc3)n1)cn2Cc1ccc(C(F)(F)F)cc1F ; strain or isolate: 1b ; result: >10 µM
CCOc1ccc(Nc2ncnc3c2cnn3-c2ccccc2)cc1 ; cell line: HUH 9B ; result: 1–10 µM
CNC(=O)c1c(-c2ccc(F)cc2)oc2cc(C)c(OC(C)C)c(S(N)(=O)=O)c12 ; cell line: Huh7 ; result: >30 µM
C=C[C@@H]1C[C@]1(NC(=O)[C@@H]1C[C@@H](Oc2cc(-c3ccccc3)nc3cc(OC)ccc23)CN1C(=O)[C@@H](NC(=O)OC(C)(C)C)C(C)(C)C)C(=O)NS(=O)(=O)c1ccccc1I ; cell line: Huh7 ; strain or isolate: 1b ; result: <0.5 µM
O=c1c(-c2ncc(Cc3ccccc3)o2)cn(Cc2ccc(Cl)cc2)c2ccc(OCCN3CCOCC3)cc12 ; strain or isolate: 1b ; result: <10 µM
CCOc1ccc(Nc2ncnc3c2cnn3-c2ccc(C)cc2C)cc1 ; cell line: HUH 9B ; result: 1–10 µM
CC(C)(c1ccccc1)c1nc(-c2cn(Cc3ccc(F)cc3)c3cc(N4CCS(=O)(=O)CC4)c(F)cc3c2=O)no1 ; strain or isolate: 1b ; result: <0.5 µM
CN1Cc2ccccc2-c2c(C3CCCCC3)c3ccc(C(=O)O)cc3n2C1=O ; cell line: Huh7 ; result: >10 µM